The results in this text go back to PMC3923783.

For at least one entry, the source does not settle the construct or the ends of the probe.

This data set has as its system His-ORF57 8-120 WT + GST-ALYREF. Briefly: GST pull-down and UV cross-linking. The note with it: cross-link to ORF57 falls, to GST-ALYREF rises; recombinant protein; protein details: His6,GST; label: radioactive end label.

As for CAGUCGCGAAGAGG [14merS end-labeled], the binding result is on record as “binds”. Regarding GAAGAGG [7merS end-labeled], the binding result is “binds”.
